Data as given in patent US9988424 (DUKE UNIVERSITY, dated 2018).

What was measured:
J08 A.92RW020V1V2 = J08 A.92RW020V1V2 (HIV-1); test: ELISA
J08 B.HXB2/BALV1V2 = target: T1, J08 B.HXB2/BALV1V2 (HIV-1); test: ELISA
T1 construct: also called J08 B.HXB/BAL V1V2
T1 chain: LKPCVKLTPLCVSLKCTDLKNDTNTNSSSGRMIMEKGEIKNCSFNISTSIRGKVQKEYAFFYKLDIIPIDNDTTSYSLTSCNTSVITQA

G.con 140CF = target: T2, G.con 140CF; test: ELISA OD405nm, bar chart, antibody concentration not given
T2 construct: also called G.con gp140CF; G.con.env03 gp140CF
T2 chain: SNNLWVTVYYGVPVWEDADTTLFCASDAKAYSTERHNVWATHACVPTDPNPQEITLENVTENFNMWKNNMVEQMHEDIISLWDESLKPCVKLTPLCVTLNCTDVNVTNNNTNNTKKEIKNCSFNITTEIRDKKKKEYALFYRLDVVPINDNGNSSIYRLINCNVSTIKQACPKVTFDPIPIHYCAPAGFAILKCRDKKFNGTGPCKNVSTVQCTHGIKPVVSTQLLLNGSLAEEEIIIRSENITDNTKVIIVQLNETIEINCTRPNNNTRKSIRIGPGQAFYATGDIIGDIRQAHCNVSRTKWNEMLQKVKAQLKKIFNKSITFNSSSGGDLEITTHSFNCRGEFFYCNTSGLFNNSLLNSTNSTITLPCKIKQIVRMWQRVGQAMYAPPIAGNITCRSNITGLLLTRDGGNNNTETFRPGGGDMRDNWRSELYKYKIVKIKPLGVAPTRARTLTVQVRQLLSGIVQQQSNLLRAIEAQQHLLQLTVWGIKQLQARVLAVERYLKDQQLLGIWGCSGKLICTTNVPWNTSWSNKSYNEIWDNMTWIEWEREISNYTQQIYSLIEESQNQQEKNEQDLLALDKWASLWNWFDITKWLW

B.con env03 140CF = target: T3, B.con env03 140CF; test: as above
T3 construct: also called B.con gp140CF

AE.con env03 40CF = target: T4, AE.con env03 40CF; test: as above
T4 construct: also called AE.con gp140CF; AE.con.env03 gp140CF
T4 chain: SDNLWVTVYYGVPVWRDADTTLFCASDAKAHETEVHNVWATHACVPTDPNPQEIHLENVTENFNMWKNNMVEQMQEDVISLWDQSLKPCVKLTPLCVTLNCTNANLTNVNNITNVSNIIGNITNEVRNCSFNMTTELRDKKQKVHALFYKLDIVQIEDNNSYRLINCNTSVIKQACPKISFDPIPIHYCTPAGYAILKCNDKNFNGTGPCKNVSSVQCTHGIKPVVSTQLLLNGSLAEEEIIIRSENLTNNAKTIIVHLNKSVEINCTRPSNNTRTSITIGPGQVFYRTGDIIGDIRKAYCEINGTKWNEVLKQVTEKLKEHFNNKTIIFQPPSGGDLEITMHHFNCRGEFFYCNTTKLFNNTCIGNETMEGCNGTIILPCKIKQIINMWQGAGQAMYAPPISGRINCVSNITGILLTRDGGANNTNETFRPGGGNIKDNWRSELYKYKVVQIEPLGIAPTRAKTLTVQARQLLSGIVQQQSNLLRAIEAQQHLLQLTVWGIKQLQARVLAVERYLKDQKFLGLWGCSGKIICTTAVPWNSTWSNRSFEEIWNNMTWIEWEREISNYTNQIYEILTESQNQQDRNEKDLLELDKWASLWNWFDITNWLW

B.040 gp140C = test: as above
J08 C.97ZA012V1V2 = target: T5, J08 C.97ZA012V1V2 (HIV-1); test: as above
T5 chain: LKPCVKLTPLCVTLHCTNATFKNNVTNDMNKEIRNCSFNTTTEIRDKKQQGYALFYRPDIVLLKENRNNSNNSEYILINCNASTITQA

B.9021 gp140C = B.9021 gp140C (HIV-1); test: as above
SIV CPZ US-1 gp140CF = target: T6, SIV CPZ US-1 gp140CF (SIVcpz); test: as above
T6 construct: also called US-1 SIVCPZ gp140CF
T6 chain: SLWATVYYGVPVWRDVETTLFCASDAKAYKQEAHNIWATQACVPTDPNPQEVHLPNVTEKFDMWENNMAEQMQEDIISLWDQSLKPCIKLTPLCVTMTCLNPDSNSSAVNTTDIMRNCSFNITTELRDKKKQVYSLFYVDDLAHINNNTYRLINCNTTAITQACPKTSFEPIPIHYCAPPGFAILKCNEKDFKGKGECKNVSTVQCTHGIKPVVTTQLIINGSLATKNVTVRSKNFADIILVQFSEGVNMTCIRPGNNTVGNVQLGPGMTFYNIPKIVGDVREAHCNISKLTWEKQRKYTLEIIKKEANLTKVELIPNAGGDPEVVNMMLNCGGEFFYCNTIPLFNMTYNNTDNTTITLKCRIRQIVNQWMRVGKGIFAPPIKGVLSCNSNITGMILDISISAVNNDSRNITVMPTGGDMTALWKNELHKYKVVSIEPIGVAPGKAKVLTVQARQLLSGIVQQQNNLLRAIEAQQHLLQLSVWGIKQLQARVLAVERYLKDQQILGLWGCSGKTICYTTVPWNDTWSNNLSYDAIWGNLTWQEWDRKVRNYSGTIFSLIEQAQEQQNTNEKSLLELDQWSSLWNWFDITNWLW

B1: CH58 (antibody, V domains shown)
VH: EVQLVQSGAEVKKPGESLKISCKGSGYRFTSYWIVWVRQMPGKGLEWMGIIYPGDFDTKYSPSFQGQVTISADKSISTAYLQWSSLKASDTAMYYCARLGGRYYHDSSGYYYLDYWGQGTLVTVSS
VL: NFMLTQPHSVSESPGKTVTISCTRSSGSVASDYVQWYQQRPGSAPTTVVYEDNQRPSGVPDRFSGSIDSSSNSASLTISGLKTEDEADYYCQSYDNSSWVFGGGTKLTVL
EC50 (J08 A.92RW020V1V2): 220 pM
EC50 (J08 B.HXB2/BALV1V2): > 667000 pM
binding result (G.con 140CF): no binding (tested: not given)
binding result (B.con env03 140CF): no binding (tested: not given)
binding result (AE.con env03 40CF): binds
binding result (B.040 gp140C): no binding (tested: not given)
binding result (J08 C.97ZA012V1V2): no binding (tested: not given)
binding result (B.9021 gp140C): no binding (tested: not given)
binding result (SIV CPZ US-1 gp140CF): no binding (tested: not given)
